Compound potency records, mixed from different reports. Data source: NIAID ChemDB in PubChem.

Shared fields: tests on isolated targets; organism: HIV-1; target: Protease

Two numbers with a dash give a range or band. ICn is the concentration giving n% inhibition. Blank or dashed fields: not listed here. Rows are shuffled and stem from different studies.

structure,measure,strain or isolate,method,mutations,result
Cc1cc(-c2ccc(N=Nc3c(S(=O)(=O)O)cc4cc(S(=O)(=O)O)cc(N)c4c3O)c(C)c2)ccc1N=Nc1c(S(=O)(=O)O)cc2cc(S(=O)(=O)O)cc(N)c2c1O,IC50,,HPLC,,2.6 µM
CC(C)(O)c1ccc(CN2C(=O)N(Cc3ccc(C(C)(C)O)cc3)[C@H](Cc3ccccc3)[C@H](O)[C@@H](O)[C@H]2Cc2ccccc2)cc1,Ki,RF,,,0.0022 µM
Nc1ccc2c(O)c(N=Nc3ccc(N=Nc4ccc(N=Nc5cc(S(=O)(=O)O)c6cccc(S(=O)(=O)O)c6c5)c5ccccc45)c4ccc(S(=O)(=O)O)cc34)c(S(=O)(=O)O)cc2c1,IC50,,HPLC,,>100 µM
O=S1(=O)N(Cc2ccc(CO)cc2)[C@H](COc2ccccc2)[C@H](O)[C@@H](O)[C@@H](COc2ccccc2)N1Cc1ccc(CO)cc1,Ki,,,PR-V82A,0.0025 µM
COc1cc(-c2ccc(N=Nc3ccc4c(S(=O)(=O)O)cc(S(=O)(=O)O)c(N)c4c3O)c(OC)c2)ccc1N=Nc1ccc2c(S(=O)(=O)O)cc(S(=O)(=O)O)c(N)c2c1O,IC50,,HPLC,,1 µM
Cc1cccc(C)c1CNC(=O)[C@H]1N(C(=O)[C@@H](O)[C@H](Cc2ccc3c(c2)OCO3)NC(=O)c2cccc(O)c2C)CSC1(C)C,Ki,,HPLC,,0.000022 µM
O=C(O[C@@H]1O[C@@H]2COC(=O)c3cc(O)c(O)c(O)c3-c3c(cc(O)c(O)c3O)C(=O)O[C@H]([C@H]1O)[C@@H]2O)c1cc(O)c(O)c(O)c1,IC50,,fluorescence,,20.7 µM
Nc1ccc2cc(S(=O)(=O)O)cc(O)c2c1N=Nc1ccc(NC(=O)Nc2ccc(N=Nc3c(N)ccc4cc(S(=O)(=O)O)cc(O)c34)c(S(=O)(=O)O)c2)cc1S(=O)(=O)O,IC50,,HPLC,,200 µM
CN(C)CCCNc1ccc(C(=O)CCCN2CCC(O)(c3ccc(Cl)cc3)CC2)cc1,IC50,,,,210 µM
Cc1ccccc1CNC(=O)[C@H]1N(C(=O)[C@@H](O)[C@H](Cc2ccc(OC(C)C)cc2)NC(=O)c2cccc(O)c2C)CSC1(C)C,Ki,,HPLC,,0.00004 µM
CC(C)(C)NC(=O)C1(C)OC(=O)C(CCc2ccccc2)=C1O,IC50,,fluorescence,,70 µM
CC(C)(C)NC(=O)[C@H]1N(C(=O)[C@@H](O)[C@H](Cc2ccccc2)NC(=O)[C@H](CC(N)=O)NC(=O)COc2cccc3ccccc23)CSC1(C)C,Ki,,,,0.0000068 µM
COc1ccc(C(O)C(C)Oc2ccc([C@H]3O[C@H](c4ccc(OC(C)C(O)c5ccc6c(c5)OCO6)c(OC)c4)[C@H](C)[C@H]3C)cc2OC)cc1OC,IC50,,substrate cleavage,,>125 µM
COc1cc(O)c2c(=O)c3cc4c(c(O)c3oc2c1)OC(C)(C)C=C4,IC50,,substrate cleavage,,>100 µg/mL
O=C(CCCN1CCC(O)(c2ccc(Cl)cc2)CC1)c1ccc(N2CCCCC2)cc1,IC50,,,,>200 µM
CNC(=O)c1cccc(CN2[C@H](COc3ccccc3)[C@H](O)[C@@H](O)[C@@H](COc3ccccc3)N(Cc3cccc(C(=O)NC)c3)S2(=O)=O)c1,Ki,,,PR-I84V,0.56 µM
C[C@@H]1CCCCCCCCCCOC(=O)N(C[C@@H](O)[C@H](Cc2ccccc2)NC(=O)O[C@H]2CO[C@H]3OCC[C@H]32)C1,Ki,,,,0.0258 µM
Cc1ccccc1CNC(=O)[C@H]1N(C(=O)[C@@H](O)[C@H](Cc2ccc3c(c2)OCO3)NC(=O)c2cccc(O)c2C)CSC1(C)C,Ki,,HPLC,,0.000037 µM
N#Cc1cccc(CN2CC[C@@H](O)[C@@H](Cc3ccccc3)N(Cc3cccc(C#N)c3)C2=O)c1,Ki,,,,1.3 µM
C=C1OC(C(=O)O)C(/C(=C/C(=O)O)C(=O)OC2C3COC(=O)c4cc(O)c(O)c(O)c4-c4c(cc(O)c(O)c4O)C(=O)OC2C(O)C(OC(=O)c2cc(O)c(O)c(O)c2)O3)c2c1cc(O)c(O)c2O,IC50,,HPLC,,12.5 µM
CC(C)(CCN)CN(C[C@@H](O)[C@H](Cc1ccccc1)NC(=O)O[C@H]1CO[C@H]2OCC[C@H]21)S(=O)(=O)c1ccc(N)cc1,Ki,,fluorescence,,<0.001 µM
COc1ccc(S(=O)(=O)N(CC(C)C)CC(O)C(NC(=O)O[C@H]2CCOC2)Sc2ccccc2)cc1,IC50,BRU,,,0.01–1 µM
COC(=O)[C@@H](NC(=O)[C@H](CC(C)C)NC(=O)[C@@H](NC(=O)CCCOc1ccc2ccc(OCCCC(=O)N[C@@H](CCC(=O)O)C(=O)N[C@@H](CC(C)C)C(N)=O)cc2n1)C(C)C)C(C)C,IC50,,fluorescence,,>5.7 µM
O=C1NCC[C@@H](O)[C@@H](Cc2ccccc2)N1,Ki,,,,>12.5 µM
Cc1ccc(NC(=O)c2cc(O)c(N=Nc3cc(S(=O)(=O)O)ccc3O)c3ccccc23)c(C)c1,IC50,,HPLC,,40 µM
CC(C)CN([C@H](CO)CCCNC(=O)[C@H](Cc1cccc2ccccc12)NC(=O)CC(F)(F)F)S(=O)(=O)c1ccc(N)cc1,Ki,NL4-3,fluorescence,,0.0016 µM
O=C(CCCN1CCC(O)(c2ccc(NC3CCCCC3)cc2)CC1)c1ccc(F)cc1,IC50,,,,120 µM
CCCOc1ccc(C[C@H](NC(=O)c2cccc(O)c2C)[C@H](O)C(=O)N2CSC(C)(C)[C@H]2C(=O)NCc2ccccc2C)cc1,Ki,,HPLC,,0.000059 µM
CO/C(=N\[N+](=O)[O-])NCCCC(C)(C)CN(C[C@@H](O)[C@H](Cc1ccccc1)NC(=O)O[C@H]1CO[C@H]2OCC[C@H]21)S(=O)(=O)c1ccc(OC)cc1,Ki,,fluorescence,,<0.001 µM
CCCCN(CCCC)c1ccc(C(=O)CCCN2CCC(O)(c3ccc(Cl)cc3)CC2)cc1,IC50,,,,>200 µM
O=S(=O)(O)c1ccccc1N=Nc1c(S(=O)(=O)O)cc2cc(S(=O)(=O)O)c(N=Nc3ccccc3S(=O)(=O)O)c(O)c2c1O,IC50,,HPLC,,290 µM
CCOc1ccc(C[C@H](NC(=O)c2cccc(O)c2C)[C@H](O)C(=O)N2CSC(C)(C)[C@H]2C(=O)NCc2ccccc2C)cc1,Ki,,HPLC,,0.000038 µM
COc1ccc(C(O)C(C)Oc2ccc([C@H]3O[C@H](c4ccc(OC(C)C(O)c5ccc(OC)c(OC)c5)c(OC)c4)[C@H](C)[C@H]3C)cc2OC)cc1OC,IC50,,substrate cleavage,,38.9 µM
CC[C@H](C)[C@H](NC(=O)[C@H](CCC(N)=O)NC(=O)CCCOc1ccc2ccc(OCCCC(=O)N[C@H](C(=O)N[C@@H](CC(C)C)C(=O)N[C@H](C(=O)OC)C(C)C)C(C)C)nc2c1)C(=O)N[C@H](C(N)=O)[C@@H](C)O,IC50,,fluorescence,,>5.7 µM
O=S1(=O)N(Cc2cccc(-c3cccs3)c2)[C@H](COc2ccccc2)[C@H](O)[C@@H](O)[C@@H](COc2ccccc2)N1Cc1cccc(-c2cccs2)c1,Ki,,,PR-V82A,39 µM
CCN(CC)c1cccc(C2(O)CCN(CCCC(=O)c3ccc(F)cc3)CC2)c1,IC50,,,,>200 µM
O=C(Nc1cc(S(=O)(=O)O)cc2cc(S(=O)(=O)O)c(N=Nc3cc(Nc4nc(Cl)nc(Nc5ccc(S(=O)(=O)O)cc5)n4)ccc3S(=O)(=O)O)c(O)c12)c1ccccc1,IC50,,HPLC,,1.3 µM
CC(=O)NCC(=O)N[C@H](C(=O)N[C@@H](Cc1ccccc1)C(=O)C(F)(F)CCc1ccccc1)C(C)C,IC50,,substrate cleavage,,0.0032 µM
CCCCN(CCCC)c1ccc(C2(O)CCN(CCCC(=O)c3ccc(F)cc3)CC2)cc1,IC50,,,,35 µM

For reference, 6 entries again:

structure | measure | strain or isolate | method | mutations | result
CC(C)(CCN)CN(C[C@@H](O)[C@H](Cc1ccccc1)NC(=O)O[C@H]1CO[C@H]2OCC[C@H]21)S(=O)(=O)c1ccc(N)cc1 | Ki |  | fluorescence |  | <0.001 µM
O=C(O[C@@H]1O[C@@H]2COC(=O)c3cc(O)c(O)c(O)c3-c3c(cc(O)c(O)c3O)C(=O)O[C@H]([C@H]1O)[C@@H]2O)c1cc(O)c(O)c(O)c1 | IC50 |  | fluorescence |  | 20.7 µM
CCCCN(CCCC)c1ccc(C(=O)CCCN2CCC(O)(c3ccc(Cl)cc3)CC2)cc1 | IC50 |  |  |  | >200 µM
Cc1ccc(NC(=O)c2cc(O)c(N=Nc3cc(S(=O)(=O)O)ccc3O)c3ccccc23)c(C)c1 | IC50 |  | HPLC |  | 40 µM
CCN(CC)c1cccc(C2(O)CCN(CCCC(=O)c3ccc(F)cc3)CC2)c1 | IC50 |  |  |  | >200 µM
COC(=O)[C@@H](NC(=O)[C@H](CC(C)C)NC(=O)[C@@H](NC(=O)CCCOc1ccc2ccc(OCCCC(=O)N[C@@H](CCC(=O)O)C(=O)N[C@@H](CC(C)C)C(N)=O)cc2n1)C(C)C)C(C)C | IC50 |  | fluorescence |  | >5.7 µM